Source: patent EP4846849A2, “FUNGICIDAL COMPOSITIONS COMPRISING AZOLES” (dated 2026)

Tests used:
[1] = tested on: Sclerotinia sclerotiorum; experiment: Microtiterplate test, activity against Sclerotinia sclerotiorum; conditions: compound alone, 7 days after inoculation
[2] = tested on: Cercospora zea maydis; experiment: Microtiterplate test, activity against Cercospora zea maydis; conditions: compound alone, 7 days after inoculation
[3] = tested on: Alternaria solani; experiment: Microtiterplate test, activity against Alternaria solani; conditions: compound alone, 7 days after inoculation
[4] = tested on: Pyrenophora teres; experiment: Microtiterplate test, activity against Pyrenophora teres; conditions: compound alone, 7 days after inoculation
[5] = tested on: Colletotrichum orbiculare; experiment: Microtiterplate test, activity against Colletotrichum orbiculare; conditions: compound alone, 7 days after inoculation
[6] = tested on: Cercospora sojina; experiment: Microtiterplate test, activity against Cercospora sojina; conditions: 0.25 ppm, compound alone; 7 days after inoculation

S1SSSSSSS1
Observed efficacy ([1]; 0.5 ppm): 3
Observed efficacy ([1]; 1 ppm): 0
Observed efficacy ([2]; […]): 0
Observed efficacy ([3]; 0.25 ppm): 0

N#Cc1c[nH]cc1-c1cccc2c1OC(F)(F)O2
Observed efficacy ([4]; 0.032 ppm): 5
Observed efficacy ([4]; […]): 25
Observed efficacy ([5]; 0.016 ppm): 57

O=C(Nc1ccccc1F)c1ccc(-c2noc(C(F)(F)F)n2)cc1
Observed efficacy ([1]; 0.25 ppm): 0
Observed efficacy ([1]; 0.5 ppm): 0
Observed efficacy ([1]; 4 ppm): 10
Observed efficacy ([3]; 0.25 ppm): 0

C[C@@H]1CC(C)(C)c2cccc(NC(=O)c3cn(C)nc3C(F)F)c21
Observed efficacy ([4]; 0.25 ppm): 15

COC(=O)C(O)(Cn1cncn1)c1ccc(Oc2ccc(Cl)cc2)cc1Cl (centres unmarked)
Observed efficacy ([4]; 0.25 ppm): 0
Observed efficacy ([4]; […]): 0
Observed efficacy [6]: 35
Observed efficacy ([1]; 0.008 ppm): 0
Observed efficacy ([1]; 0.25 ppm): 5
Observed efficacy ([1]; 0.5 ppm): 3
Observed efficacy ([1]; 1 ppm): 16
Observed efficacy ([5]; 0.008 ppm): 13
Observed efficacy ([5]; […]): 26
Observed efficacy ([2]; 0.002 ppm): 11
Observed efficacy ([2]; 0.016 ppm): 30
Observed efficacy ([3]; 0.016 ppm): 8
Observed efficacy ([3]; 0.125 ppm): 37
Observed efficacy ([3]; […]): 30

COc1ccnc(C(=O)N[C@@H](C)C(=O)O[C@@H](C)C(c2ccc(F)cc2)c2ccc(F)cc2)c1OC(C)=O
Observed efficacy ([4]; 0.25 ppm): 36

CC1CC(C)(C)c2c(F)ccc(NC(=O)c3cn(C)nc3C(F)F)c21 (racemic)
Observed efficacy ([3]; 0.25 ppm): 37

CC(O)(Cn1cncn1)c1ccc(Oc2ccc(Cl)cc2)cc1C(F)(F)F (racemic)
Observed efficacy ([3]; 0.032 ppm): 48
